Pooled drug test results. Numbers come from NIAID ChemDB, via PubChem.

Common to all: whole-cell or culture tests; organism: Plasmodium falciparum; endpoint: EC50

Rows are shuffled and stem from different studies. Blank or dashed fields: not listed here. ECn: concentration that inhibits the pathogen or its effect by n%. a–b is a range or a potency band.

structure	cells	strain	result
C[C@H]1[C@@H](O)O[C@@H]2OC3(C)CC[C@H]4[C@H](C)CC[C@@H]1[C@@]24OO3	-	NF54	0.0011 µM
COc1ccc(NC(=O)C2C(C(=O)O)[C@@H]3CC[C@H]2O3)cc1	-	D6	>500 µM
Cc1cccc(OCCNC(=O)c2ccccc2C(F)(F)F)c1	-	Dd2	43.1 µM
C=C[C@H]1CN2CC[C@H]1C[C@H]2[C@H](O)c1ccnc2ccccc12	-	HB3	0.018 µM
OCCCNc1nc(NCCCNc2ccnc3cc(Cl)ccc23)nc(N2CCOCC2)n1	-	W2	1.52 µM
CC(C)c1ccc(OCCNC(=O)c2ccccc2Cl)cc1	-	Dd2	22 µM
CCOC(=O)C1=C(O)CSC1=Nc1ccc2ccccc2c1	-	3D7	0.079–0.75 µM
O[C@H](c1cc(C(F)(F)F)nc2c(C(F)(F)F)cccc12)[C@@H]1CCCCN1	-	D10	0.038 µM
OCCNc1nc(NCCNc2ccnc3cc(Cl)ccc23)nc(N2CCCCC2)n1	-	W2	0.49 µM
CC1(C)N=C(N)N=C(N)N1c1ccc(Cl)cc1	-	NF54	0.0045 µM
OCCCCNc1nc(NCCCNc2ccnc3cc(Cl)ccc23)nc(N2CCOCC2)n1	-	W2	1.12 µM
Cc1cccc(OCCNC(=O)c2ccccc2Cl)c1	-	Dd2	7.5 µM
CC(C)CN1CCN(C(=O)CC2CCC3(CC2)OOC2(OO3)C3CC4CC(C3)CC2C4)CC1	-	3D7	0.0014 µM
CN1CCc2cc3c(cc2[C@H]1[C@H]1OC(=O)c2c1ccc1c2OCO1)OCO3	-	K1CB1	>10 µg/mL
OCCCNc1nc(NCCNc2ccnc3cc(Cl)ccc23)nc(N2CCCCC2)n1	-	W2	0.83 µM
C=C[C@H]1CN2CC[C@H]1C[C@H]2[C@H](O)c1ccnc2ccc(OC)cc12	-	RSA11	0.381 µM
C[n+]1c2ccccc2c(NC2CCNCC2)c2[nH]c3ccccc3c21.[Cl-]	-	3D7	0.087 µM
O=C1CSC(Nc2ccc3ccccc3c2)=C1CONCC1CC1	-	Dd2	>20 µM
OCCCNc1nc(NCCCCNc2ccnc3cc(Cl)ccc23)nc(N2CCOCC2)n1	-	W2	0.57 µM
COc1cc2c(cc1OC)CN(Cc1ccc(O)cc1)CC2	-	TM4/8.2	>20 µg/mL
C/C=C1/CN2CCC34c5ccccc5N5C=C6[C@H]7C[C@@H]8N(CCC89c8ccccc8N(C=C([C@H]1C[C@H]23)[C@H]54)[C@@H]69)C/C7=C/C	-	W2	0.303 µg/mL
COc1cc(/C=C2\CC/C(=C\c3ccc(OCCN(C)C)c(OC)c3)C2=O)ccc1OCCN(C)C	-	D6	1.14 µM
CC(C)(O)[C@H](O)COc1c2occc2cc2ccc(=O)oc12	RBC	CQ-sensitive	6 µg/mL
O=C(CC1CCC2(CC1)OOC1(OO2)C2CC3CC(C2)CC1C3)NCCN1CCCC1	-	3D7	0.0012 µM
C=C1CN2CCC34c5ccccc5N5C=C([C@H]6CC7C8=C(CCC7C/C6=C/C)c6ccccc6C8)[C@@H](O)[C@@H]([C@H]53)[C@H]1C[C@H]24	-	W2	0.415 µg/mL
CN1CCc2cc3c(cc2[C@@H]1[C@@H]1OC(=O)c2c1ccc1c2OCO1)OCO3	-	K1CB1	>20 µg/mL
CCN(CC)CCCC(C)Nc1ccnc2cc(Cl)ccc12	-	D6	0.053 µM
OCCNc1nc(NCCCCNc2ccnc3cc(Cl)ccc23)nc(N2CCOCC2)n1	-	W2	0.59 µM
CCN(CCO)CCCC(C)Nc1ccnc2cc(Cl)ccc12	-	3D7	0.02 µg/mL
C[C@H]1[C@@H](OC(=O)CCC(=O)O)O[C@@H]2O[C@@]3(C)CC[C@H]4[C@H](C)CC[C@@H]1[C@@]24OO3	-	NF54	0.0035 µM
CCc1nc(N)nc(N)c1-c1ccc(Cl)cc1	-	RSA11	0.036 µM
C[C@@H]1CC[C@H]2[C@@H](C)C(=O)O[C@@H]3OC4(C)CC[C@@H]1[C@]32OO4	-	FCM29	0.04 µg/mL
Cc1cccc(OCCNC(=O)c2ccc(Cl)cc2Cl)c1	-	Dd2	>50 µM
CCOC(=O)C1=C(O)CSC1=Nc1ccc(Br)cc1C	-	Dd2	>20 µM
Cc1[nH]ccc2c(C)c3nc4ccccc4c3cc12	-	3D7	1.2 µM
O=C(CC1CCC2(CC1)OOC1(OO2)C2CC3CC(C2)CC1C3)N1CCC(N2CCOCC2)CC1	-	K1	0.0028 µM
COc1cc(/C=C2\CC/C(=C\c3ccc(OCCn4ccnc4C)c(OC)c3)C2=O)ccc1OCCn1ccnc1C	-	D6	2.01 µM
COc1cc(O)c2c(=O)c(O)c(-c3ccc(O)c(O)c3)oc2c1	-	Clinical isolates	27.04 µM
Oc1ccc(CNNC(=S)NC2CCCCC2)cc1	-	Dd2	>50 µM
Cc1ccc(N=C2SCC(O)=C2C(=O)O)cc1C	-	3D7	>20 µM
C=CC1CN2CCC1CC2[C@H](O)c1ccnc2ccc(OC)cc12	-	K1	0.16 µM
Cc1cccc(OCCNC(=O)c2c(Cl)ccc3cc(C)cnc23)c1	-	Dd2	>50 µM
C=C1CN2CCC34c5ccccc5N5C=C([C@H]6CC7C8=C(CCN7C/C6=C/C)C6C=CC=CC6N8)[C@@H](O)[C@@H]([C@H]53)[C@H]1C[C@]24O	-	W2	12.8 µg/mL
OCCCCNc1nc(NCCCCNc2ccnc3cc(Cl)ccc23)nc(N2CCOCC2)n1	-	D6	0.09 µM
Cc1cccc(OCCNC(=O)c2ccncc2Cl)c1	-	Dd2	>50 µM